Anti-infective test results gathered from many reports (values: NIAID ChemDB through PubChem).

Shared fields: host cell toxicity; endpoint: CC50

CCn: concentration that lowers growth or viability of the cells by n%. Conditions beyond the fields shown may differ between rows. An empty or dashed field is not shown.

smiles	cells	method	result
Cc1cc(C)n(-c2nc3c(c(=O)n2-c2cnc4c(c2)ncn4C)C[C@@H](C)N(C(=O)c2ccc(Br)c(C(F)(F)F)c2)C3)n1	HepG2.117	luminescence	>0.5 µM
COc1cc2c(cc1OC)C(C)=NCC2	BJ		<7.5 µM
O=C1CC[C@H](O)c2cccc(O)c21	BCA		11.27 µg/mL
OCc1c(Cl)ccc(Oc2ccc(Cl)cc2Cl)c1O	Human foreskin fibroblasts	fluorescence	>10 µM
Cc1cc(C)n(-c2nc3c(c(=O)n2-c2ccc(N4CCN(C)CC4)nc2)C[C@@H](C)N(C(=O)c2ccc(Br)c(C(F)(F)F)c2)C3)n1	HepG2.117	luminescence	>0.5 µM
Cc1n[nH]c(=S)n1N	Fibroblast L929	MTT	>100 µg/mL
O=S(=O)(NCc1cc(Cl)ccc1Oc1ccc(Cl)cc1O)c1ccccc1	Human foreskin fibroblasts	fluorescence	>10 µM
C/C(=C\C[C@H](O)[C@@H](C)[C@H]1CC[C@@]2(C)C3=C(CC[C@]12C)[C@@]1(C)CC[C@H](O)C(C)(C)C1CC3)C(=O)O	NCI-H187	resazurin	>50 µg/mL
COc1c2c(c(OC)c3ccccc13)CN(c1ccccc1)C(=N)C2	J774A.1 macrophages	neutral red	56.55 µM
CCCN(Cc1ccccc1OCC(=O)OCC)C(=O)c1ccc(-c2ccc3c(c2)OCO3)cc1	RAJI		>20 µM
N=c1cc2c(cn1-c1ccc(C(=O)O)cc1)C(=O)c1ccccc1C2=O	J774A.1 macrophages	neutral red	145 µM
O=C(NC(c1ccccc1)c1ccccc1)[C@H](Cc1ccccc1)NC(=O)n1nnc2ccccc21	HEL	MTT	17.3 µg/mL
N=c1cc2c(cn1-c1ccc(Cl)cc1)C(=O)c1ccccc1C2=O	J774A.1 macrophages	neutral red	28.51 µM
CC(=O)Nc1ccc(Oc2ccc(Cl)cc2O)c(Cl)c1	Human foreskin fibroblasts	fluorescence	>10 µM
O=c1c2ncn(COC(CO)CO)c2nc2[nH]c(-c3ccc(C(F)(F)F)cc3)cn12	OST TK-/HSV-1 TK+		0.0086 µg/mL
O=S(=O)(Nc1ccc(Oc2ccc(Cl)cc2O)c(Cl)c1)c1ccc2ccccc2c1	Human foreskin fibroblasts	fluorescence	>10 µM
N=c1cc2c(cn1-c1ccccc1Cl)C(=O)c1ccccc1C2=O	J774A.1 macrophages	neutral red	29.12 µM
Oc1cc(Cl)ccc1Oc1ccc(Cl)cc1CNCc1ccc2ccccc2c1	Human foreskin fibroblasts	fluorescence	>10 µM
Cc1cc(C)n(-c2nc3c(c(=O)n2-c2ccc(OC[C@H](C)OP(=O)(O)O)cc2)C[C@@H](C)N(C(=O)c2ccc(Br)c(C(F)(F)F)c2)C3)n1	HepG2.117	luminescence	>0.5 µM
CC[C@H](/C=C/[C@@H](C)[C@H]1CCC2C3CC=C4CC(O[C@@H]5O[C@H](CO)[C@@H](O)[C@H](O)[C@H]5O)CC[C@]4(C)C3CC[C@@]21C)C(C)C	1A2	XTT	>125 µg/mL
CCc1ccc(Oc2ccc(Cl)cc2Cl)c(O)c1	Human foreskin fibroblasts	fluorescence	>10 µM
COc1c2c(c(OC)c3ccccc13)CN(c1ccc(Cl)cc1)C(=N)C2	J774A.1 macrophages	neutral red	24.12 µM
N#Cc1ccccc1CNc1ccc(Oc2ccc(Cl)cc2O)c(Cl)c1	Human foreskin fibroblasts	fluorescence	>10 µM
Cc1c(-c2ccc(C(F)(F)F)cc2)[nH]c2nc3c(ncn3COCCO)c(=O)n12	OST TK-/HSV-1 TK+		0.35 µg/mL
Oc1cc(Cl)ccc1Oc1ccc(Cl)cc1CNCc1ccc(-c2ccccc2)cc1	Human foreskin fibroblasts	fluorescence	>10 µM
Cc1cc(C)n(-c2nc3c(c(=O)n2-c2ccc(N4CCN(C(C)C)CC4)nc2)C[C@@H](C)N(C(=O)c2ccc(Br)c(C(F)(F)F)c2)C3)n1	HepG2.117	luminescence	>0.5 µM
CCc1c(O)c2c(c(O)c1OC)C(=O)C(OC)CC2	NCI-H187		6.81 µg/mL
C[C@H]([C@@H]1CC[C@@H](C)C(=O)O1)[C@H]1CC[C@@]2(C)C3=C(CC[C@]12C)[C@@]1(C)CC[C@@H](O)C(C)(C)C1CC3	NCI-H187	resazurin	>50 µg/mL
COc1cc(F)cc(-c2ccc(C(=O)N(Cc3cccc(OCCCCCC(=O)OC(=O)O)c3)C(C)C)cc2)c1	BJ		>20 µM
COC1=CC(=O)c2c(cc(OC)c(C(C)C3=C(O)c4c(O)cc(O)cc4C(=O)C3=O)c2O)C1=O	BCA		0.37 µg/mL
CCC(C)C1NC(=O)N(CC2CCCCC2)C1=O	HEL	MTT	50 µg/mL
N=c1cc2c(cn1-c1ccccc1)C(=O)c1ccccc1C2=O	J774A.1 macrophages	neutral red	31.25 µM
Cc1cc(C)n(-c2nc3c(c(=O)n2-c2ccc(OC[C@@H](C)O)cc2)C[C@@H](C)N(C(=O)c2ccc(Br)c(C(F)(F)F)c2)C3)n1	HepG2.117	luminescence	>0.5 µM
COC(=O)C1=CN[C@@H]2OC[C@]3(O)C=C[C@H]1[C@H]23	L6 rat skeletal myoblasts	resazurin	50.3 µg/mL
Cc1cc(C)n(-c2nc3c(c(=O)n2-c2ccc(N4CC(O)C4)nc2)C[C@@H](C)N(C(=O)c2ccc(Br)c(C(F)(F)F)c2)C3)n1	HepG2.117	luminescence	>0.5 µM
Cc1ccc(-n2cc3c(cc2=N)C(=O)c2ccccc2C3=O)cc1	J774A.1 macrophages	neutral red	18.15 µM
CCOC(=O)CCCCCOc1cccc(CN(C(=O)c2ccc(-c3cccc(OC(C)C)c3)cc2)C(C)C)c1	HEK 293		>20 µM
CC(C)C1NC(=O)N(C2CCCC2)C1=O	HEL	MTT	>50 µg/mL
C/C(=C\C[C@H](O)[C@@H](C)[C@H]1CC[C@@]2(C)C3=C(CC[C@]12C)[C@@]1(C)CCC(=O)C(C)(C)C1CC3)C(=O)O	NCI-H187	resazurin	48.35 µg/mL
CCCCCCCCCCCCCCCCCCOP(=O)(O)OC[C@H]1O[C@@H](N2CCc3c(-c4ccccc4)ncnc32)[C@@H](O)C1O	Human fibroblasts BJ	MTT	>50 µM
Cc1c(-c2ccc(F)cc2)[nH]c2nc3c(ncn3COCCO)c(=O)n12	OST TK-/HSV-1 TK+		0.043 µg/mL
NC(=O)Nc1ccc(Oc2ccc(Cl)cc2O)c(Cl)c1	Human foreskin fibroblasts	fluorescence	>10 µM

A second listing of 6 rows from above:

smiles	cells	method	result
O=C(NC(c1ccccc1)c1ccccc1)[C@H](Cc1ccccc1)NC(=O)n1nnc2ccccc21	HEL	MTT	17.3 µg/mL
O=S(=O)(NCc1cc(Cl)ccc1Oc1ccc(Cl)cc1O)c1ccccc1	Human foreskin fibroblasts	fluorescence	>10 µM
Cc1c(-c2ccc(F)cc2)[nH]c2nc3c(ncn3COCCO)c(=O)n12	OST TK-/HSV-1 TK+		0.043 µg/mL
Cc1ccc(-n2cc3c(cc2=N)C(=O)c2ccccc2C3=O)cc1	J774A.1 macrophages	neutral red	18.15 µM
Cc1cc(C)n(-c2nc3c(c(=O)n2-c2ccc(N4CC(O)C4)nc2)C[C@@H](C)N(C(=O)c2ccc(Br)c(C(F)(F)F)c2)C3)n1	HepG2.117	luminescence	>0.5 µM
Oc1cc(Cl)ccc1Oc1ccc(Cl)cc1CNCc1ccc2ccccc2c1	Human foreskin fibroblasts	fluorescence	>10 µM